The target of one test is T1, AE.97CNG2XF gp140CF (HIV-1).
T1 construct: also called E.97CNGX2F gp140CF
T1 chain: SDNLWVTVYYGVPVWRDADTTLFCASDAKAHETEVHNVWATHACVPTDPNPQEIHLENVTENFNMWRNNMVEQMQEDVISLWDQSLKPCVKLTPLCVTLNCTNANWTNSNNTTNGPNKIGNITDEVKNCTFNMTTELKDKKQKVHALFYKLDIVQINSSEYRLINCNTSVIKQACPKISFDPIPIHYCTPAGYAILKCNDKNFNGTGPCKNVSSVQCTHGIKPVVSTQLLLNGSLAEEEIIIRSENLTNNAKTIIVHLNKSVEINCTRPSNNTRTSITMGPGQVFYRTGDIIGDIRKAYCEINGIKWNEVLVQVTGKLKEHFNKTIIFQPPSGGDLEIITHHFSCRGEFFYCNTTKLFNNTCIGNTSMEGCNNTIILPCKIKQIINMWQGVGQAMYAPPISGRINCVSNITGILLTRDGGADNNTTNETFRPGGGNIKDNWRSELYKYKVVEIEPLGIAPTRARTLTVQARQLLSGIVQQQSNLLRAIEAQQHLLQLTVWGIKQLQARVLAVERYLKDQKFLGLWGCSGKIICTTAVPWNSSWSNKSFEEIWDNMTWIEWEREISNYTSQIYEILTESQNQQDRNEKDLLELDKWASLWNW
In words: ELISA. On the technique in general: In an ELISA, binding on a coated surface is turned into a signal by an enzyme label.

The next test addresses J08 A.92RW020V1V2 (HIV-1).
For a further test, the target named is Env of SHIV SF162P3 (SHIV). In words: cell-based or functional assay.
In the next test the target is Env of SHIV-BaL (SHIV). In words: cell-based or functional assay.
The target of the next test is T2, B. 684-6 gp140C.
T2 chain: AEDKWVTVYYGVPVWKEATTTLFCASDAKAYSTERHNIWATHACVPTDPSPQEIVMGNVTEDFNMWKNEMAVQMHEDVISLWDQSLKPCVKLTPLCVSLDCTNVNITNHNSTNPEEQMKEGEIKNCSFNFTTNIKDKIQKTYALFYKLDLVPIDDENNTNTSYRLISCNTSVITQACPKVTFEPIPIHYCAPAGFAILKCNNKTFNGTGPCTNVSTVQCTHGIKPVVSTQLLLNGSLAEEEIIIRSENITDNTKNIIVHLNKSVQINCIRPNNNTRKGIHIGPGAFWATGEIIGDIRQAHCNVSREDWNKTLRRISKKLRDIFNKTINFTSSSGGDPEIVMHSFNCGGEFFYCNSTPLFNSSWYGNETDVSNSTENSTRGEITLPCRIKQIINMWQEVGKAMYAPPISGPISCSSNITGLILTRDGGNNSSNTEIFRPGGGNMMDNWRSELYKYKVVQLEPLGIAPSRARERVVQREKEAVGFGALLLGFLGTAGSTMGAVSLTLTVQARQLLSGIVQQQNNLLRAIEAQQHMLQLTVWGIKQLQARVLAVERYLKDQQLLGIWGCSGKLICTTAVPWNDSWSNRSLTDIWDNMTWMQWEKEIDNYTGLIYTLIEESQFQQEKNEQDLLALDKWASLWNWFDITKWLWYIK
The test can be described thus: ELISA, OD405 at 10 ug/ml mAb.

In a further test the target is T3, B.63521_V1V2 Tags.
T3 Env construct: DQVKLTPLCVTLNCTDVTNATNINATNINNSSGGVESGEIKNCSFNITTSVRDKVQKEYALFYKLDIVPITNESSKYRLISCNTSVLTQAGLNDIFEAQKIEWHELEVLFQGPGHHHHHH
The test can be described thus: ELISA, OD405 at 10 ug/ml mAb.

Another test has as its target T4, C.1086 gp140.
T4 construct: also called C.1086gp140C
T4 chain: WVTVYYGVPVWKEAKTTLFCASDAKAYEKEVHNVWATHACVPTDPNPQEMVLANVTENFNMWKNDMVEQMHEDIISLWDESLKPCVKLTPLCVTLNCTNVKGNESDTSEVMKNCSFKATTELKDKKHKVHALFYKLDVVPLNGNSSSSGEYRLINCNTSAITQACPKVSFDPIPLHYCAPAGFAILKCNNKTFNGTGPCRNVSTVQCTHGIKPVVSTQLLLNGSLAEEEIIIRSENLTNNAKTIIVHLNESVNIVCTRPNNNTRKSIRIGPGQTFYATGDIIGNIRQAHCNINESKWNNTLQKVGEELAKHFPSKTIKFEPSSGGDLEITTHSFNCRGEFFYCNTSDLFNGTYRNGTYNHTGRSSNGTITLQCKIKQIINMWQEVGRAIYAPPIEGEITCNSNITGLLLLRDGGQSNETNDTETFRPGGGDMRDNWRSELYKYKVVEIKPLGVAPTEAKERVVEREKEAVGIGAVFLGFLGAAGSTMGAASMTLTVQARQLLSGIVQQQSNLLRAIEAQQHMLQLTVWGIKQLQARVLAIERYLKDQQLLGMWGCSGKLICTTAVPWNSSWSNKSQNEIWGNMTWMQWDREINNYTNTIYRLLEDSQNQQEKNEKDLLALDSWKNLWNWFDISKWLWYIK
In words: ELISA, OD405 at 10 ug/ml mAb.

The target in a further test is T5, D.9009SA V1V2 Tags.
T5 Env construct: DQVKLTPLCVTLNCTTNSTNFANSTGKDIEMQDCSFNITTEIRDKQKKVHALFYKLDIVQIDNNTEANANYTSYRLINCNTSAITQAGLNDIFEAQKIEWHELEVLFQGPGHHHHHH
The test can be described thus: ELISA, OD405 at 10 ug/ml mAb.

B1: CH58 (antibody, V domains shown)
VH: EVQLVQSGAEVKKPGESLKISCKGSGYRFTSYWIVWVRQMPGKGLEWMGIIYPGDFDTKYSPSFQGQVTISADKSISTAYLQWSSLKASDTAMYYCARLGGRYYHDSSGYYYLDYWGQGTLVTVSS
VL: NFMLTQPHSVSESPGKTVTISCTRSSGSVASDYVQWYQQRPGSAPTTVVYEDNQRPSGVPDRFSGSIDSSSNSASLTISGLKTEDEADYYCQSYDNSSWVFGGGTKLTVL
B1: the EC50 (usually the concentration at which the effect is half-maximal) with AE.97CNG2XF gp140CF worked out at 0.07 mg/L. In the test with J08 A.92RW020V1V2, the Kd (commonly the free concentration of one partner at which half of the binding sites on the other are occupied at equilibrium, for simple one-to-one binding) worked out at 0.175 µM. In the test with Env of SHIV SF162P3, the “EC50, neutralization of SHIV SF162P3” value was greater than 50 mg/L. The “EC50, neutralization of SHIV-BaL” value with Env of SHIV-BaL was greater than 50 mg/L. Moreover, the binding result with B. 684-6 gp140C, with B.63521_V1V2 Tags, in the test with C.1086 gp140 and in the test with D.9009SA V1V2 Tags was “binds” each time.

The values above are taken from patent US9988424 (DUKE UNIVERSITY, dated 2018).
